Pooled drug test results. Numbers come from NIAID ChemDB, via PubChem.

Shared fields: cytotoxicity tests; cells: HepG2.2.15; endpoint: CC50

CCn is the concentration with n% toxicity to the cells. Conditions beyond the fields shown may differ between rows. Blank or dashed fields: not listed here.

compound	read by	result
CCOC(=O)C1=C(CN2CC(F)(F)[C@H]3[C@@H]2CCN3C[C@@H](O)C(C)(C)C(=O)O)NC(c2nccs2)=N[C@H]1c1cccc(F)c1C	WST / absorbance	6.5 µM
CNC(=O)c1cnc(SC)nc1Nc1ccc2cn[nH]c2c1	MTT	>100 µg/mL
CCOC(=O)C1=C(CN2CC(F)(F)[C@@H]3[C@H]2CON3C[C@@H](O)[C@@H](CC)C(=O)O)NC(c2nccs2)=N[C@H]1c1cccc(F)c1C	WST / absorbance	>100 µM
COC(=O)C1=C(CN2CCN(C(=O)OC)CC2)NC(c2ncc(F)cc2F)=NC1c1ccc(Cl)cc1Cl		3.5 µM
COC(=O)C1=C(CN2CC(F)(F)[C@H]3[C@@H]2CCN3C[C@@H](F)C(C)(C)C(=O)O)NC(c2nc(C)cs2)=N[C@H]1c1cccc(F)c1C	WST / absorbance	33 µM
C=C(C)[C@H](OC(=O)COC)[C@H](C[C@@H](C)[C@]12CC[C@@]3(C)[C@@]1(C[C@H](OC(=O)COC)[C@H]1[C@@]4(C)CCC(=O)C(C)(C)[C@@H]4CC[C@@]13C)O2)OC(=O)COC		>1300 µM
CC1(C)[C@@H](O)CC[C@]2(C)[C@H]3C(=O)C=C4[C@@H]5C[C@@](C)(C(=O)OCC(N)=O)CC[C@]5(C)CC[C@@]4(C)[C@]3(C)CC[C@@H]12		55.33 µM
COc1cc2c(c(OC)c1OC)-c1c(cc3c(c1OC)OCO3)C[C@H](C)[C@H](C)[C@@H]2OC	MTT	>1000 µg/mL
CCOCC1=C(C(=O)OC)C(c2ccc(F)cc2Cl)N=C(c2ncc(F)cc2F)N1		>100 µM
C=C(C)[C@H](CC)CC[C@@H](C)C1CCC2C3CC=C4C[C@@H](OC5OC(CO)C(O)C(O)C5O)CC[C@]4(C)C3CC[C@@]21C	MTT	77.9 µM
CC1(C)[C@@H](O)CC[C@]2(C)[C@H]3C(=O)C=C4[C@@H]5C[C@@](C)(C(=O)OCc6cccc7cccnc67)CC[C@]5(C)CC[C@@]4(C)[C@]3(C)CC[C@@H]12		>1700 µM
CCOC(=O)C1=C(CN2CC(F)(F)[C@H]3[C@@H]2CCN3C[C@H](F)C(C)(C)C(=O)O)NC(c2nc(C)cs2)=N[C@H]1c1cccc(F)c1C	WST / absorbance	34.4 µM
CC(C)c1cc2c(c(O)c1O)C[C@@]1(O)CCCC(C)(C)C1CC2	MTT	2140 µM
COC(=O)C1=C(CN2CCN(C(=O)OC)CC2)NC(c2ncc(F)cc2F)=NC1c1ccc(F)cc1Br		4 µM
C[C@H](C[C@H](OC(=O)C1CCCCC1)[C@@H](OC(=O)C1CCCCC1)C(C)(C)O)C1=C2C[C@H](OC(=O)C3CCCCC3)[C@H]3[C@@]4(C)CCC(=O)C(C)(C)[C@@H]4CC[C@]3(C)[C@@]2(C)CC1		>800 µM
CC(=O)SCCOP(=O)(OCCOCn1cnc2c(=O)[nH]c(N)nc21)OCCSC(C)=O		987 µM
CCOC(=O)C1=C(CN2CC(F)(F)[C@@H]3[C@H]2CON3CC[C@@](C)(OC)C(=O)O)NC(c2nccs2)=N[C@H]1c1cccc(F)c1C	WST / absorbance	>100 µM
CNC(=O)c1cnc(SC)nc1Nc1ccc2[nH]ncc2c1	MTT	>100 µg/mL
COCC(=O)O[C@@H](C[C@@H](C)C1=C2C[C@H](OC(=O)COC)[C@H]3[C@@]4(C)CCC(=O)C(C)(C)[C@@H]4CC[C@]3(C)[C@@]2(C)CC1)[C@@H](OC(=O)COC)C(C)(C)OC(=O)COC		>2500 µM
CCOC(=O)C1=C(CN2CC(F)(F)[C@H]3[C@@H]2CCN3C[C@@H](F)C(C)(C)C(=O)O)NC(c2nc(C)cs2)=N[C@H]1c1ccc(F)c(F)c1F	WST / absorbance	19.7 µM
C/C=C(/C)C(=O)Oc1c(OC)c(OC)cc2c1-c1c(cc(OC)c(OC)c1OC)C[C@H](C)[C@H](C)C2	MTT	>1000 µg/mL
COCC(=O)O[C@@H](C[C@@H](C)[C@]12CC[C@@]3(C)[C@@]1(C[C@H](OC(=O)COC)[C@H]1[C@@]4(C)CCC(=O)C(C)(C)[C@@H]4CC[C@@]13C)O2)[C@@H](OC(=O)COC)C(C)(C)OC(=O)COC		>800 µM
C=C(C)[C@H](O)CC[C@]1(C)CC[C@]2(C)[C@H]3CC[C@@]4(C)[C@@H](CCC(=O)[C@@H]4C)[C@]3(C)CC[C@@]2(C)C1	sulforhodamine	172.4 µM
N#CCCC1C(=O)c2ccc(-c3ccc(F)c(F)c3)cc2OC12CCCC2		3 µM
C[C@@]12C(=O)NC(=O)[C@]1(C)C1CCC2O1	MTT	0.0389 µM
CCC(O)CC1=C(C(=O)OC)C(c2ccc(F)cc2Cl)N=C(c2ncc(F)cc2F)N1		44 µM
Cc1cc(NC(=O)c2c(C(C)C)noc2C)ccc1F		>100 µM
CCOCC1=C(C(=O)OC)[C@H](c2ccc(F)cc2Cl)N=C(c2ncc(F)cc2F)N1		>25 µM
C[C@H]1OC(=O)[C@@H](O)CC2[C@]3(C)CC[C@@]45C(=O)O[C@@H](C[C@@]6(C)CC[C@](C)(CO)CC64)[C@]5(C)C3CC[C@@]21C	MTT	392.5 µM
COC(=O)C1=C(CN2CCN(C(=O)Oc3ccccc3)CC2)NC(c2ncc(F)cc2F)=N[C@H]1c1ccc(F)cc1Br		8 µM
CCOC(=O)CCCOC(=O)[C@@]1(C)CC[C@]2(C)CC[C@]3(C)C(=CC[C@@H]4[C@@]5(C)CC[C@H](OC(=O)c6cc(=O)c7ccccc7o6)C(C)(C)[C@@H]5CC[C@]43C)[C@@H]2C1		>1180 µM
C[C@@]12COC(=O)[C@@]1(C)[C@@H](O)C13CC(=O)O[C@@]1(C)CC[C@@]32O	XTT	2540 µM
CC1O[C@H]2[C@@H]3C4=C(C(=O)OCC4=C[C@@]45C6=C(C(=O)OCC6)[C@@H](C[C@@H]34)OC5C)[C@H]3O[C@H](O)[C@@H]1C1=CCOC(=O)[C@@]132	MTT	>2540 µM
C[C@H](Cn1cnc2c(N)ncnc21)OCP(=O)(O)O	MTT	29.46 µM
C[C@H]1C(O)CCC2[C@]3(C)CC[C@@]4(C)C5CC(C)(C)CC[C@]5(C)CC[C@]4(C)C3CC[C@@]21C	MTT	329.2 µM
COC(=O)C1=C(CN2CCN(C(=O)OC)CC2)NC(c2ncccc2F)=NC1c1ccc(F)cc1Br		14 µM
CC1O[C@@H]2C[C@H]3[C@H]4C5=C(C(=O)OCC5=C[C@]13C1=C2C(=O)OCC1)[C@@H](O)O[C@@H]4c1cccc2c1CCOC2=O	MTT	>1680 µM
C=C(C)[C@H](CC)CC[C@@H](C)[C@H]1CCC2C3C(=O)C=C4C[C@@H](O)CC[C@]4(C)C3CC[C@@]21C	MTT	483.4 µM
COC(=O)[C@@]1(C)CC[C@]2(C)CC[C@]3(C)C(=CC(=O)C4[C@@]5(C)CC[C@H](O)C(C)(C)C5CC[C@]43C)C2C1		>1740 µM
Cc1cc(NC(=O)c2c(C)noc2C)ccc1F		>100 µM

Repeating the final 3 entries:

{"compound": "C=C(C)[C@H](CC)CC[C@@H](C)[C@H]1CCC2C3C(=O)C=C4C[C@@H](O)CC[C@]4(C)C3CC[C@@]21C", "read by": "MTT", "result": "483.4 µM"}
{"compound": "COC(=O)[C@@]1(C)CC[C@]2(C)CC[C@]3(C)C(=CC(=O)C4[C@@]5(C)CC[C@H](O)C(C)(C)C5CC[C@]43C)C2C1", "result": ">1740 µM"}
{"compound": "Cc1cc(NC(=O)c2c(C)noc2C)ccc1F", "result": ">100 µM"}